Results deposited as PubChem BioAssay AID624099 (ICCB-Longwood, 2012)

Aim: 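Host factors E2 relies on to silence an HPV18 LCR reporter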 (primary screen)
Cells: human C33A cervical carcinoma cells (HPV-negative) stably expressing BPV1 E2 and an HPV18 LCR luciferase reporter
Knock-down reagent: siRNA pool against human genes, 40 nM
Timing: 72 h
Measured: 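HPV18 LCR reporter light per well, converted to plate-wise z-scores that exclude control wells, and averaged over triplicate plates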
Direction: mean z-score and z-score: higher = stronger reporter signal, weaker E2 silencing
Active means: 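Mean z ≥ 2 together with z ≥ 2 in two or more of the three replicates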
The whole screen tested about 21,000 reagents; shown is a random part of them. 497 of all reagents (2.4%) were called active. 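Higher z means weaker E2 silencing; only reporter increases were scored, and knock-downs that hurt cell survival may mask genuine repressor factors.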

gene symbol	mean z-score	z-score, replicate A	z-score, replicate B	z-score, replicate C	Outcome
SGSH (N-sulfoglucosamine sulfohydrolase)	0.49	0.3	0.83	0.34	inactive
APCS (amyloid P component, serum)	0.11	-0.08	0.33	0.06	inactive
CDAN1 (codanin 1)	-0.19	-0.16	-0.19	-0.22	inactive
APOH (apolipoprotein H)	0.48	0.28	0.78	0.39	inactive
ACAA1 (acetyl-CoA acyltransferase 1)	0.5	0.35	0.65	0.49	inactive
LOC134541 (retired record)	-0.3	-0.39	-0.17	-0.33	inactive
ASNSD1 (asparagine synthetase domain containing 1)	-1.4	-1.48	-1.43	-1.29	inactive
LOC388731 (retired record)	-0.24	-0.14	-0.21	-0.37	inactive
ABHD11 (abhydrolase domain containing 11)	-0.6	-0.32	-0.62	-0.87	inactive
APOL6 (apolipoprotein L6)	1.35	1.57	0.8	1.66	inactive
DIS3L (DIS3 like exosome 3'-5' exoribonuclease)	-0.41	-0.59	-0.51	-0.14	inactive
GCDH (glutaryl-CoA dehydrogenase)	1.52	1.24	1.85	1.47	inactive
WBP1L (WW domain binding protein 1 like)	-1.25	-1.44	-1.19	-1.12	inactive
ZDHHC21 (zDHHC palmitoyltransferase 21)	-0.08	0.18	-0.21	-0.21	inactive
PSME3IP1P1 (PSME3IP1 pseudogene 1)	-1.32	-1.26	-1.35	-1.34	inactive
CAMK1D (calcium/calmodulin dependent protein kinase ID)	0.67	0.21	0.87	0.94	inactive
VGF (VGF nerve growth factor inducible)	0.13	0.08	0.12	0.18	inactive
SLC6A4	0.27	-0.02	0.54	0.29	inactive
FLT1 (fms related receptor tyrosine kinase 1)	-1.12	-1.26	-1.12	-0.98	inactive
RTN4RL1 (reticulon 4 receptor like 1)	-0.53	-0.71	-0.47	-0.4	inactive
SLC13A2	0.17	0.3	0.25	-0.05	inactive
TRAM1L1 (translocation associated membrane protein 1 like 1)	0.2	0.77	0.02	-0.19	inactive
APBB3 (amyloid beta precursor protein binding family B member 3)	0.36	0.23	0.37	0.5	inactive
MAP2 (microtubule associated protein 2)	0.33	0.17	0.34	0.47	inactive
DCTD (dCMP deaminase)	-0.45	-0.31	-0.62	-0.41	inactive
LARP4 (La ribonucleoprotein 4)	-1.25	-1.35	-1.6	-0.79	inactive
DRGX (dorsal root ganglia homeobox)	-1.43	-1.46	-1.39	-1.45	inactive
IFNGR2 (interferon gamma receptor 2)	1.25	0.9	1.44	1.41	inactive
HRH2 (histamine receptor H2)	0.03	0.07	0.25	-0.24	inactive
TPRN (taperin)	0.7	0.76	0.73	0.61	inactive
PIDD1 (p53-induced death domain protein 1)	0.5	0.63	0.49	0.37	inactive
LOC401476 (retired record)	-0.14	-0.05	0	-0.37	inactive
HERPUD1	-0.27	-0.26	-0.42	-0.14	inactive
TAF7L (TATA-box binding protein associated factor 7 like)	0.29	0.1	0.3	0.47	inactive
APOLD1 (apolipoprotein L domain containing 1)	1.91	2.06	2.05	1.61	inactive
EPAS1 (endothelial PAS domain protein 1)	-0.3	-0.3	-0.27	-0.34	inactive
RNF170 (ring finger protein 170)	-0.83	-0.94	-0.9	-0.66	inactive
FPGS (folylpolyglutamate synthase)	-0.94	-0.84	-0.94	-1.04	inactive
SAXO1 (stabilizer of axonemal microtubules 1)	2.65	2.92	2.65	2.39	active
MYL10 (myosin light chain 10)	-0.18	-0.16	0.15	-0.52	inactive
MYH15 (myosin heavy chain 15)	0.02	0.27	-0.39	0.19	inactive
KCNJ13 (potassium inwardly rectifying channel subfamily J member 13)	-0.51	-0.59	-0.49	-0.46	inactive
STRADB (STE20 related adaptor beta)	1.73	1.79	1.52	1.88	inactive
RBMX2 (RNA binding motif protein X-linked 2)	0.57	0.51	0.67	0.52	inactive
KRTAP5-8 (keratin associated protein 5-8)	-1.04	-1.13	-0.72	-1.28	inactive
RAB43 (RAB43, member RAS oncogene family)	-0.99	-0.74	-1.12	-1.1	inactive
RPS27AP5 (ribosomal protein S27a pseudogene 5)	-2.98	-2.7	-3.49	-2.73	inactive
CAVIN1 (caveolae associated protein 1)	-0.46	-0.44	-0.52	-0.43	inactive
ERVMER34-1 (endogenous retrovirus group MER34 member 1, envelope)	-0.04	0.13	-0.42	0.16	inactive
FBLN2 (fibulin 2)	0.13	0.21	0.21	-0.03	inactive
ZP1 (zona pellucida glycoprotein 1)	-0.88	-0.93	-0.81	-0.89	inactive
FADD (Fas associated via death domain)	-1.12	-1.13	-1.09	-1.14	inactive
SLC7A5P1	-1.36	-1.66	-1.3	-1.13	inactive
MLLT6 (MLLT6, PHD finger containing)	-1.14	-1.08	-1.35	-0.98	inactive
PML (PML nuclear body scaffold)	1.18	1.11	1.12	1.31	inactive
TEX44 (testis expressed 44)	0.84	1.03	0.34	1.14	inactive
CHST1 (carbohydrate sulfotransferase 1)	-0.86	-0.81	-0.77	-0.99	inactive
